## Share of PSTVd stem 3 variants by leaf site

PSTVd intermediate strain, stem 3: wild type GUGGUUCCGGAACCGC, pool pattern GUGGUUCCGNANNCNN; upper and lower strand joined, each 5' to 3', the first 8 letters being the upper strand.

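Three N. benthamiana plants were inoculated with the whole mutant pool. Samples came from the inoculated region at 5 days, the leaf margin at 10 and upper systemic leaves at 12.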

Numbers give reads per thousand; 0 = not seen among the reads, higher = more abundant. Each site shows the three plants. "Pool" is the share in the plasmid pool used as inoculum, on the same scale. The inoculated region was read from the minus strand, the other sites from the plus strand. The authors trace changes outside the varied positions to PCR and sequencing errors or to mutation in the plant; presence does not show that a variant is infectious alone.

With GUGGUUCCGAAACCCC (pool 0.893) the assay gave inoculated region 0.853 / 0.712 / 0.838; leaf margin 0.425 / 0 / 0.397; systemic leaves 0 / 0 / 0.
With GUGGUUCCGAACCCCA (pool 0.939) the assay gave inoculated region 0.453 / 0.302 / 0.216; leaf margin 0 / 0.0318 / 0.0361; systemic leaves 0 / 0 / 0.
With GUGGUUCCGAACUCUC (pool 0.831) the assay gave inoculated region 1.09 / 0.927 / 1.30; leaf margin 0 / 0.0318 / 0; systemic leaves 0 / 0 / 0.
With GUGGUUCCGAAGGCCU (pool 0.862) the assay gave inoculated region 0.986 / 0.755 / 0.946; leaf margin 0 / 1.27 / 0.289; systemic leaves 0 / 0 / 0.
With GUGGUUCCGAAUGCAC (pool 0.708) the assay gave inoculated region 1.41 / 1.08 / 1.54; leaf margin 0.0283 / 0 / 0.253; systemic leaves 0 / 0 / 0.
With GUGGUUCCGAAUUCAU (pool 1.39) the assay gave inoculated region 1.09 / 1.19 / 0.919; leaf margin 1.56 / 0.954 / 0.433; systemic leaves 1.45 / 1.59 / 0.632.
With GUGGUUCCGAAUUCUG (pool 0.985) the assay gave inoculated region 0.826 / 0.647 / 1.22; leaf margin 0 / 1.30 / 0.614; systemic leaves 0 / 0 / 0.
With GUGGUUCCGCAAUCUU (pool 0.723) the assay gave inoculated region 0.746 / 0.776 / 0.757; leaf margin 0 / 0.0318 / 0.325; systemic leaves 0 / 0 / 0.
With GUGGUUCCGCACACAC (pool 1.02) the assay gave inoculated region 0.320 / 0.302 / 0.216; leaf margin 0.0567 / 0.0636 / 0; systemic leaves 0 / 0 / 0.
With GUGGUUCCGCAGGCGA (pool 0.923) the assay gave inoculated region 0.187 / 0.323 / 0.189; leaf margin 0 / 0 / 0; systemic leaves 0 / 0 / 0.
With GUGGUUCCGCAUGCAA (pool 0.800) the assay gave inoculated region 0.373 / 0.453 / 0.243; leaf margin 0 / 0 / 0.0722; systemic leaves 0 / 0 / 0.
With GUGGUUCCGGAAUCGG (pool 1.02) the assay gave inoculated region 0.480 / 0.237 / 0.135; leaf margin 0 / 0.0318 / 0; systemic leaves 0.0186 / 0 / 0.
With GUGGUUCCGGACCCUC (pool 0.739) the assay gave inoculated region 0.320 / 0.259 / 0.189; leaf margin 0 / 0.0318 / 0; systemic leaves 0.0186 / 0.0184 / 0.0243.
With GUGGUUCCGGAGGCAU (pool 2.49) the assay gave inoculated region 0.960 / 1.32 / 1.51; leaf margin 1.64 / 1.30 / 0.181; systemic leaves 1.47 / 1.25 / 0.730.
With GUGGUUCCGGAUCCAU (pool 0.693) the assay gave inoculated region 0.773 / 0.733 / 0.540; leaf margin 0 / 0 / 0.397; systemic leaves 0 / 0 / 0.
With GUGGUUCCGUACCCGG (pool 0.785) the assay gave inoculated region 0.426 / 0.280 / 0.351; leaf margin 0 / 0.0318 / 0; systemic leaves 0 / 0 / 0.
With GUGGUUCCGUAGACGG (pool 0.816) the assay gave inoculated region 0.293 / 0.237 / 0.189; leaf margin 0 / 0 / 0.0361; systemic leaves 0 / 0 / 0.
With GUGGUUCCGUAUCCAG (pool 0.785) the assay gave inoculated region 0.347 / 0.216 / 0.567; leaf margin 0 / 0.0318 / 0.0361; systemic leaves 0 / 0 / 0.
With GUGGUUCCGUAUUCUA (pool 0.954) the assay gave inoculated region 0.373 / 0.431 / 0.324; leaf margin 0 / 0.0636 / 0; systemic leaves 0 / 0 / 0.
With GUUGUUCCGCAGUCCG (pool 0.0154) the assay gave inoculated region 0 / 0 / 0; leaf margin 0 / 0 / 0; systemic leaves 0 / 0 / 0.
With GUUGUUCCGGAUACCC (pool 0.0154) the assay gave inoculated region 0 / 0 / 0; leaf margin 0 / 0 / 0; systemic leaves 0 / 0 / 0.

The last 2 entries again:

With GUUGUUCCGCAGUCCG (pool 0.0154) the assay gave inoculated region 0 / 0 / 0; leaf margin 0 / 0 / 0; systemic leaves 0 / 0 / 0.
With GUUGUUCCGGAUACCC (pool 0.0154) the assay gave inoculated region 0 / 0 / 0; leaf margin 0 / 0 / 0; systemic leaves 0 / 0 / 0.

Wild type was 17.3 per thousand in the pool and the most common sequence in every sample (inoculated region 330, 345, 235; leaf margin 794, 766, 816; systemic leaves 830, 792, 869). With 27,691-54,225 reads a sample, very low values are single reads.

Data from the supplement of Wu et al. 2024, doi:10.1371/journal.ppat.1012142.